Compound potency records, mixed from different reports. Data source: NIAID ChemDB in PubChem.

Shared fields: whole-cell or culture tests; agent: Mycobacterium tuberculosis

ECn: concentration that inhibits the pathogen or its effect by n%. Rows are shuffled and stem from different studies. a–b is a range or a potency band. Inhibition is in % at the dose shown (toxicity tests: loss of growth or viability). An empty or dashed field is not shown. MIC bound: limit read from a one-dose screen. A number after MIC or MFC names an inhibition level or a share of isolates. "inactive" is the filed call at that dose; no cut-off is given.

SMILES,strain or isolate,read by,measure,mutations,conditions,dose,value
Fc1ccc(/C(Cn2ccnc2)=N/OC/C=C/c2ccccc2)cc1,CIP103471,-,MIC,-,-,-,8 µg/mL
CC1COc2c(N3CCN(C)CC3)c(F)cc3c(=O)c(C(=O)O)cn1c23,H37RV (RIF-R),-,MIC,-,-,-,0.63 µg/mL
CN(C)c1ccc(N=C2CC(=Nc3ccc(N(C)C)cc3)c3ccccc3C2=O)cc1,H37Rv,BACTEC,MIC bound,-,-,-,>12.5 µg/mL
C=C1CC[C@@]2(C)[C@@H]([C@@H]1C)[C@H]1CCC3[C@@]4(C)CC[C@H](O)C(C)(C)[C@@H]4CC[C@@]3(C)[C@]1(C)C[C@@H]2O,H37Rv,-,MIC,-,-,-,16 µg/mL
NNC(=O)c1ccncc1,Isolate 17,-,MIC,-,-,-,1 µg/mL
C=C(CCC=C(C)C)C1CC[C@]2(C)C1CC[C@@H]1[C@@]3(C)CC[C@H](O)C(C)(C)[C@@H]3CC[C@]12C,H37Rv,-,MIC,-,-,-,32 µg/mL
O=C(/N=C/c1ccc(Cl)cc1)NCCCN1c2ccccc2Sc2ccccc21,H37Rv,agar,inhibition,-,-,25 µg/mL,25%
CCOC(=O)c1cc(-c2ccccc2)n(CC(=O)N/N=C/c2cn(C(C)=O)c3ccccc23)c1C,H37Rv,BACTEC,inhibition,-,-,6.25 µg/mL,25%
CCOP(=O)(CCC(O)CNc1nc(N)nc(Cl)c1N=Nc1ccc(Cl)cc1)OCC,H37Rv,resazurin,MIC bound,-,-,-,>6.25 µg/mL
O=C(NCCCN1c2ccccc2Sc2ccccc21)N1C(=O)/C(=C\c2ccccc2O)SC1c1ccccc1O,H37Rv,agar,inhibition,-,-,25 µg/mL,25%
COc1ccc(S(=O)(=O)NC(=S)S)cc1,CS-R,-,MIC,-,-,-,>12.8 µg/mL
CN[C@@H]1[C@H](O[C@H]2[C@H](O[C@H]3[C@H](O)[C@@H](O)[C@H](N=C(N)N)[C@@H](O)[C@@H]3N=C(N)N)O[C@@H](C)[C@]2(O)C=O)O[C@@H](CO)[C@H](O)[C@H]1O,-,broth dilution,MIC80,Bedaquiline-resistant I66M,-,-,0.3 µM
CC1(C)CC[C@]2(C)CC=C3[C@]4(C)CCC5C(C)(C)[C@@H](O)CC[C@]5(C)C4CC[C@@]3(C)C2C1,H37Rv,-,MIC,-,-,-,>64 µg/mL
COC12CC3C4CCC5CC(O)CCC5(C)C4CCC3(C)C1C(C)C1(CCC(C)CO1)O2,H37Rv,BACTEC,inhibition,-,-,12.5 µg/mL,-2%
CCc1nc2ccc(Cl)cn2c1C(=O)NCc1ccc(N2CCC(c3ccc(OC(F)(F)F)cc3)CC2)cc1,N0072,turbidity,MIC50,-,-,-,0.0015 µM
Cc1ccc(/C=N/N=c2/scc(-c3cc4ccccc4oc3=O)n2C2CCCCC2)cc1,H37Rv,-,inhibition,-,-,6.25 µg/mL,0%
NC[C@H]1O[C@H](O[C@H]2[C@H](O)[C@@H](O[C@H]3O[C@H](CO)[C@@H](O)[C@H](N)[C@H]3O)[C@H](N)C[C@@H]2N)[C@H](O)[C@@H](O)[C@@H]1O,Isolate 5,-,MIC,-,-,-,2 µg/mL
O=C1OC(COCC#Cc2ccccc2)CN1c1ccccc1,H37Rv,BACTEC,MIC bound,-,-,-,>12.5 µg/mL
CC(C)(C)c1cc(C(C)(C)C)c2oc(-c3ccco3)nc2c1,H37Rv,BACTEC,inhibition,-,-,6.25 µg/mL,<90%
NC(=O)c1cnccn1,Isolate 97-718,-,MIC,-,-,-,900 µg/mL
COc1ccc(/C=N/C(=O)NCCCN2c3ccccc3Sc3ccccc32)cc1,H37Rv,agar,inhibition,-,-,25 µg/mL,25%
COc1cc2c[n+](C)c3c4cc5c(cc4ccc3c2cc1OC)OCO5,H37Rv,BACTEC,inhibition,-,-,12.5 µg/mL,95%
O=C(NCCCN1c2ccccc2Sc2ccccc21)N1C(=O)/C(=C\c2ccccc2)SC1c1ccccc1,H37Rv,agar,inhibition,-,-,50 µg/mL,45%
COc1ccc(-n2c(SCC(=O)NC(=O)Nc3ccccc3)nc3c(Br)cc(Br)cc3c2=O)cc1,H37Rv,BACTEC,MIC bound,-,-,-,>12.5 µg/mL
O=c1oc2ccccc2cc1-c1cs/c(=N/N=C/c2ccc(Cl)c(Cl)c2)n1C1CCCCC1,H37Rv,-,inhibition,-,-,6.25 µg/mL,42%
Cc1c[nH]c(C)c1C(=O)N/N=C/c1c[nH]c2ccccc12,H37Rv,BACTEC,inhibition,-,-,6.25 µg/mL,6%
CCOC(=O)C(=O)Nc1nc2c(s1)C(=O)c1ccccc1C2=O,H37Rv,BACTEC,MIC,-,-,-,3.13 µg/mL
CC(C)(C)c1cc(C(C)(C)C)c2oc(CO)nc2c1,H37Rv,BACTEC,inhibition,-,-,6.25 µg/mL,<90%
NNC(=O)c1ccncc1,Clinical isolate 4851,resazurin / absorbance,MIC,-,-,-,0.03 µg/mL
CCOC(=O)c1c(C)c(-c2ccccc2)n(CC(=O)NN)c1C,H37Rv,BACTEC,inhibition,-,-,6.25 µg/mL,13%
N#C/C(=N\NC(=O)c1cccnc1)c1ccc(Cl)cc1,H37Rv,BACTEC,MIC,-,-,-,≥12.5 µg/mL
O=C1CSC(c2ccc(O)cc2)N1C(=O)NCCCN1c2ccccc2Sc2ccccc21,H37Rv,agar,inhibition,-,-,25 µg/mL,33%
Clc1ccc(/C(Cn2ccnc2)=N\OCc2ccccc2)cc1,CIP103471,-,MIC,-,-,-,0.5 µg/mL
C/C=C/c1ccc2c(c1)[C@@H](C)[C@H](c1ccc(OC)cc1)O2,Clinical isolate 49,resazurin / absorbance,MIC,-,-,-,7.8 µg/mL
COc1c(OCc2ccccc2)ccc2c1c[n+](C)c1c3cc4c(cc3ccc21)OCO4,H37Rv,BACTEC,MIC,-,-,-,<12.5 µg/mL
CO[C@H]1/C=C/O[C@@]2(C)Oc3c(C)c(O)c4c(O)c(c(/C=N/N5CCN(C)CC5)c(O)c4c3C2=O)NC(=O)/C(C)=C\C=C\[C@H](C)[C@H](O)[C@@H](C)[C@@H](O)[C@@H](C)[C@H](OC(C)=O)[C@@H]1C,-,-,MIC99,511Pro,-,-,80–640 µg/mL
CCOC(=O)c1c(C)c(-c2ccccc2)n(CC(=O)N/N=C/c2cc3ccccc3[nH]2)c1C,H37Rv,BACTEC,EC50,-,-,-,>6.25 µg/mL
C[N+]1=C2C=C(O)C(=O)C=C2C(O)C1,H37Rv,BACTEC,inhibition,-,-,12.5 µg/mL,27%
CC[C@@H](CO)NCCN[C@@H](CC)CO,H37Rv,-,MIC,-,-,-,1.25 µg/mL
O=C1CSC(c2ccccc2O)N1C(=O)NCCCN1c2ccccc2Sc2ccccc21,H37Rv,agar,inhibition,-,-,25 µg/mL,33%
COc1cc2c(c[n+](C)c3c4cc5c(cc4ccc23)OCO5)c(OC)c1OC,H37Rv,BACTEC,MIC,-,-,-,>12.5 µg/mL
S=C1NC2=S(N=C(Nc3ccccc3)N2c2ccccc2)S1,H37Rv,resazurin,inhibition,-,-,6.25 µg/mL,6%
C=C[C@]1(C)C=C2[C@H](O)C[C@@H]3C(C)(CCC[C@@]3(C)CO)[C@H]2CC1,ITM3533,-,inhibition,-,-,100 µg/mL,inactive
C=C(C)[C@@H]1CC[C@]2(C)CCC3(C)[C@H](CC[C@@H]4[C@@]5(C)CC[C@H](O)C(C)(C)[C@@H]5CC[C@]43C)[C@@H]12,H37Rv,-,MIC,-,-,-,>64 µg/mL
N[C@@H](Cc1ccc2oc3cc(=O)c4ccccc4c-3nc2c1)C(=O)O,H37Rv,BACTEC,MIC bound,-,-,-,>12.5 µg/mL
CCOC(=O)c1c(C)[nH]c(C(=O)NN)c1C,H37Rv,BACTEC,inhibition,-,-,6.25 µg/mL,13%
O=S(=O)(O)c1cc(O)c2c(N=Nc3ccc(Nc4ccccc4)c4c(S(=O)(=O)O)cccc34)cc(S(=O)(=O)O)cc2c1,H37Rv,BACTEC,MIC bound,-,-,-,>12.5 µg/mL
C=C/C(C)=C/[C@@]1(C)SC(=O)C(C)=C1O,PMH29:kasB,-,MIC,-,-,-,5 µg/mL
COC(=O)C1=CO[C@@H](C)[C@@H]2CN3CCc4c([nH]c5cc(OC)c(OC)cc45)[C@H]3C[C@H]12.O=C(O)C(=O)O,H37Rv,BACTEC,MIC,-,-,-,≥12.8 µg/mL
COc1ccc2c(c[n+](C)c3c4cc5c(cc4ccc23)OCO5)c1OC,H37Rv,BACTEC,MIC,-,-,-,<12.5 µg/mL
CC(C)N=c1cc2n(-c3ccc(Cl)cc3)c3ccccc3nc-2cc1Nc1ccc(Cl)cc1,2218,-,MIC,-,multidrug-resistant,-,0.5 µg/mL
C/C=C/c1ccc2oc(-c3ccc(OC)c(OC)c3)c(C)c2c1,Clinical isolate 91,resazurin / absorbance,MIC,isoniazid and streptomycin resistant,-,-,3.9 µg/mL
CC(C)(C)c1cc(C(C)(C)C)c2oc(-c3ccccc3O)nc2c1,H37Rv,BACTEC,inhibition,-,-,6.25 µg/mL,70%
C=C(CCC(C)[C@H]1CC[C@@]2(C)[C@@H]3CC[C@H]4C(C)(C)[C@@H](O)CCC45CC35CC[C@]12C)C(C)C,H37Rv,-,MIC,-,-,-,64 µg/mL
C[C@@H]1Cn2cc(C(=O)O)c(=O)c3cc(F)c(N4CCN(/C(N)=N/C(N)=NCCCCCCN=C(N)/N=C(\N)N5CCN(c6c(F)cc7c(=O)c(C(=O)O)cn8c7c6O[C@@H](C)C8)CC5)CC4)c(c32)O1,ATCC 35837,broth dilution,MIC,-,-,-,1.25 µg/mL
COc1ccc(/C=N/NC(=O)c2c(C)c[nH]c2C)cc1,H37Rv,BACTEC,inhibition,-,-,6.25 µg/mL,0%
NNC(=O)c1ccncc1,-,broth dilution,MIC80,Bedaquiline-resistant A63P,-,-,0.2 µM
O=C1CSC(c2ccccc2Cl)N1C(=O)NCCCN1c2ccccc2Sc2ccccc21,H37Rv,agar,inhibition,-,-,50 µg/mL,60%
COC(=O)/C(=C1\OC(=O)C(c2ccccc2)=C1O)c1ccccc1,H37Rv,BACTEC,MIC bound,-,-,-,≤128 µg/mL
O=c1oc2ccc(Br)cc2cc1-c1cs/c(=N/N=C/c2cc([N+](=O)[O-])ccc2O)n1C1CCCCC1,H37Rv,-,MIC,-,-,-,>6.25 µg/mL
COC1OC(CO)C(N=C(C)C)C1O,H37Rv,BACTEC,inhibition,-,-,12.5 µg/mL,9%
CCOC(=O)c1c(C)c(-c2ccccc2)n(CC(=O)N=Nc2c(O)[nH]c3ccccc23)c1C,H37Rv,BACTEC,EC50,-,-,-,>6.25 µg/mL
C=C(C)[C@@H]1[C@H]2C(=O)O[C@@H]1C[C@@]1(C)[C@]2(O)[C@@H]2O[C@@H]2[C@@]12CO2,H37Rv,BACTEC,MIC bound,-,-,-,>12.5 µg/mL
c1ccc(/C(Cn2ccnc2)=N\OCc2ccc(-c3ccccc3)cc2)cc1,CIP103471,-,MIC,-,-,-,8 µg/mL
CO[C@H]1/C=C/O[C@@]2(C)Oc3c(C)c(O)c4c(O)c(c(/C=N/N5CCN(C)CC5)c(O)c4c3C2=O)NC(=O)/C(C)=C\C=C\[C@H](C)[C@H](O)[C@@H](C)[C@@H](O)[C@@H](C)[C@H](OC(C)=O)[C@@H]1C,H37RV (DL8280-R),-,MIC,-,-,-,3 µg/mL
C[C@@H]1CN(c2c(F)c(N)c3c(=O)c(C(=O)O)cn(C4CC4)c3c2F)C[C@H](C)N1,Isolate 7,-,MIC,-,-,-,2 µg/mL
COc1nc2ccc(Br)cc2cc1[C@@H](c1ccccc1)[C@@](O)(CCN(C)C)c1cccc2ccccc12,19000,broth dilution,MIC80,Rifampicin-resistant,-,-,<2 µM
COc1ccc(/C=N/N=c2\scc(-c3cc4cc(Br)ccc4oc3=O)n2C2CCCCC2)cc1,H37Rv,-,inhibition,-,-,6.25 µg/mL,58%
COC(=O)c1ccccc1N=NC(C#N)C(N)=O,H37Rv,BACTEC,inhibition,-,-,12.5 µg/mL,14%
CCc1ccc(-c2nc3cc(C(C)(C)C)cc(C(C)(C)C)c3o2)o1,H37Rv,BACTEC,inhibition,-,-,6.25 µg/mL,<90%
Fc1ccc(/C(Cn2ccnc2)=N/OCc2ccccc2)cc1,CIP103471,-,MIC,-,-,-,8 µg/mL
CN=c1ncc2nc(C)c(C)n(C)c-2n1,H37Rv,BACTEC,MIC bound,-,-,-,>12.5 µg/mL
Clc1ccc(/C(Cn2ccnc2)=N\OCc2ccc(-c3ccccc3)cc2)c(Cl)c1,CIP103471,-,MIC,-,-,-,8 µg/mL
O=c1oc2ccccc2cc1-c1cs/c(=N/N=C/c2ccc(F)cc2)n1C1CCCCC1,H37Rv,-,MIC,-,-,-,>6.25 µg/mL
CN(C)C(=O)Sc1ccc(-c2c(-c3ccccc3)oc3ccc4ccccc4c23)cc1,H37Rv,BACTEC,MIC bound,-,-,-,≤12.5 µg/mL
COc1cc2c(ccc3c4cc(OC)c(OC)cc4c[n+](C)c23)cc1O,H37Rv,BACTEC,inhibition,-,-,12.5 µg/mL,66%
c1ccc2c(c1)Sc1ccccc1N2Cc1cnc[nH]1,H37Rv,BACTEC,MIC bound,-,-,-,>12.5 µg/mL
N#CC1=C([N+](=O)[O-])NC2OC[C@@H](OCc3ccc(OC(F)(F)F)cc3)CN12,Ddn-,broth dilution,MIC,-,-,-,>100 µM

Repeating the final 8 entries:

SMILES | strain or isolate | read by | measure | mutations | conditions | dose | value
Fc1ccc(/C(Cn2ccnc2)=N/OCc2ccccc2)cc1 | CIP103471 | - | MIC | - | - | - | 8 µg/mL
CN=c1ncc2nc(C)c(C)n(C)c-2n1 | H37Rv | BACTEC | MIC bound | - | - | - | >12.5 µg/mL
Clc1ccc(/C(Cn2ccnc2)=N\OCc2ccc(-c3ccccc3)cc2)c(Cl)c1 | CIP103471 | - | MIC | - | - | - | 8 µg/mL
O=c1oc2ccccc2cc1-c1cs/c(=N/N=C/c2ccc(F)cc2)n1C1CCCCC1 | H37Rv | - | MIC | - | - | - | >6.25 µg/mL
CN(C)C(=O)Sc1ccc(-c2c(-c3ccccc3)oc3ccc4ccccc4c23)cc1 | H37Rv | BACTEC | MIC bound | - | - | - | ≤12.5 µg/mL
COc1cc2c(ccc3c4cc(OC)c(OC)cc4c[n+](C)c23)cc1O | H37Rv | BACTEC | inhibition | - | - | 12.5 µg/mL | 66%
c1ccc2c(c1)Sc1ccccc1N2Cc1cnc[nH]1 | H37Rv | BACTEC | MIC bound | - | - | - | >12.5 µg/mL
N#CC1=C([N+](=O)[O-])NC2OC[C@@H](OCc3ccc(OC(F)(F)F)cc3)CN12 | Ddn- | broth dilution | MIC | - | - | - | >100 µM